Library screen at single concentrations

Data taken from ChEMBL document CHEMBL3988442, “University of Dundee, Small-Polar-MMV Screening Library” (2021).

Each number is a percent effect as filed.
The record does not define 0% and 100%; most values in the screen are far below 50% and negative numbers occur (in some assays of this library far below -100).
This is part of a subset picked to be rich in strong results.
Two or more numbers in one place are separate tests of the same structure; such repeats can differ widely.

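Whole-cell growth test on Mycobacterium tuberculosis, read after 3 days in glucose-containing 7H9 medium; the read-out is not stated. Tested at 50 µM. Direction is inferred from retests: higher values go with more growth inhibition. About 69,000 compounds were tested under these conditions; 1.1% (about 760) showed 50% or more at least once.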

| SMILES | percent effect |
|---|---|
| `CN(C)c1ncnc2c1CCN(c1cccc(F)c1)CC2` | -5.34% and 61.27% |
| `CC(C)[C@@H]1CN(Cc2ccccc2C#N)C[C@H]1N(C)C` | -33.58% |
| `COc1c(Br)cccc1CCNC(=O)c1ncoc1C` | 29.36% and 13.69% |
| `Cc1ccc(CNC(=O)Nc2nccs2)cn1` | 2.206% |
| `Cc1cc(C(=O)N2CCN(c3nc4c(C(C)C)cccc4s3)CC2)no1` | 48.31% |
| `Cc1cc(C)nc(N2CCC(CNC(=O)c3ccccn3)CC2)n1` | 14.01% |
| `O=C(NCc1ccco1)N1CCC(n2ccc(C(F)(F)F)n2)CC1` | 47.15% |
| `CO[C@H]1CCN(Cc2ccoc2)C[C@@H]1Cc1ccccc1.O=C(O)C(F)(F)F` | -31.35% |
| `COCCN(Cc1ccoc1)C(=O)CSc1ccc(F)cc1` | 0.1393% |
| `OCC1CCCN1c1cc(N2CCc3ccccc3C2)ncn1` (centres unmarked) | -1.651% |
| `Cc1ccccc1-n1cc(-c2ccnc(N3CCCC(O)C3)n2)cn1` (centres unmarked) | 7.994% and 15.59% |
| `Cc1cccc(CN(Cc2ccccn2)Cc2ncc(C(C)(C)C)o2)c1` | 15.56% and 20.65% |
| `CCc1cc(N(C)Cc2cc[nH]n2)n2nc(C)c(C)c2n1` | 37.8% |
| `O=C(NCC1(c2cccc(F)c2)CC1)N1CCC2(CCOC2)C1` (centres unmarked) | 6.727% and -11.85% |
| `CC(=O)N1CCCC1c1cccc(Cc2ccccc2Cl)n1` (centres unmarked) | 36.47% |
| `O=C(CCC1CCCC1)N1CCC(c2ncc3c(n2)CCNC3)CC1` | 41.09% |
| `CCNC(=O)c1ccnc(N2CCCC(COc3ccccc3C)C2)c1` (centres unmarked) | 33.13% and 8.376% |
| `Cc1cccc2cc(CO)c(N3Cc4cnc(C(C)(C)C)nc4C3)nc12` | 92.11% and 5.848% |
| `c1cnn(CC2CCN(c3nc(C4CC4)nc4c3CCNCC4)CC2)c1` | 12.63% |
| `NC(=O)c1cc(C2CCCN(C(=O)CCc3ccsc3)C2)n[nH]1` (centres unmarked) | -13.93% |
| `Cc1cccnc1CCNC(=O)CC1C(=O)NCCN1CCC(C)C` (centres unmarked) | -1.199% and -42.11% |
| `COc1ccccc1-c1ncc(CN2CCCC[C@H](N(C)C)C2)s1` | 50.2% |
| `O=C(Nc1ccccn1)C1CCN(C(=O)COc2ccccc2F)C1` (centres unmarked) | 15.35% |
| `CSc1ccc(C(CN)N2CCc3sccc3C2)cc1` (centres unmarked) | -15.45% and 71.78% |
| `COC(=O)[C@H](C)NC(=O)c1cc(-c2cccc(Cl)c2)no1` | 58.93% and 52.36% |
| `CCOc1ccccc1C(N)CC(C)C` (centres unmarked) | 6.224% and -2.08% |
| `c1coc(CNc2nnc(Cc3ccsc3)o2)c1` | 45.34% |
| `CCCc1cncnc1N1CCC(NCc2ccncc2)CC1` | -25.35% and -7.79% |
| `CCCC(=O)NCc1cccc(C(=O)OC)c1` | 28.97% and -2.724% |
| `COC(=O)CCC(=O)NC1CCCc2cc(OC(F)F)ccc21` (centres unmarked) | 34.66% |
| `CC(NC(=O)CCn1cccn1)c1cccs1` (centres unmarked) | 9.081% |
| `CCc1noc(CNc2ccc(F)cc2OCC2CC2)n1` | 18.92% |
| `CC(C)Oc1ccc(CN2CCCC(N3CCCC3)C2)cc1CO` (centres unmarked) | 50.91% and 29.14% |
| `COC(=O)c1ccc(N2CCC(c3ccccc3)CC2)nn1` | 43.84% |
| `COCc1nc(N2CC[C@H](N(C)C)C2)c2cnn(C)c2n1` | 29.34% |
| `CN1CCN(CC(NCc2cccc(O)c2)c2ccccc2)CC1` (centres unmarked) | -3.572% |
| `O=C(Nc1ccccc1OC1CCOC1)c1cc[nH]n1` (centres unmarked) | -30.56% |
| `Cc1cnc(C(=O)N2CCCC(c3nccn3Cc3cscn3)C2)cn1` (centres unmarked) | 6.7% |
| `Cl.Clc1cccc(N[C@H]2CCCN[C@H]2Cc2ccccc2)c1` | 116.2% |
| `O=C(Nc1cnn(Cc2ccc(F)cc2Cl)c1)C1CC1` | 50.41% |
| `COc1ccc(-c2cccc3c2OC(CN)C3)cc1F` (centres unmarked) | 39.23% and 49.42% |
| `CN1CCc2nc(C3CCCCN3Cc3ccccc3Cl)ncc2C1` (centres unmarked) | 5.121% |
| `[H][C@]12CC[C@]([H])(CN(Cc3ccc(F)cc3)C1)N(Cc1snnc1C)C2` | 13.29% |
| `Cc1cc(CN(C)CC2(O)CCCN(CCC3CCCCC3)C2=O)no1` (centres unmarked) | -15.26% |
| `Cc1cc(N2CCC(Cc3ccccc3)CC2)ncn1` | 11.19% and 20.81% |
| `CN(C)CCNC(=O)C1Cc2nc(-c3ccsc3)sc2N1CC1CC1.O=C(O)C(F)(F)F` (centres unmarked) | 34.32% |
| `Cc1ccc(CC(=O)N2CCn3cc(Cn4cncn4)nc3C2)cc1` | 3.87% and 13.87% |
| `Clc1cc(NCc2ncc[nH]2)nc2[nH]ccc12` | 57.57% |
| `CC(=O)c1ccc(NC(=O)N[C@H](C(=O)O)C(C)C)cc1` | -14.65% |
| `CCOc1cccc(CCNC(=O)Cc2ccccc2O)n1` | -1.434% |
| `Cc1noc(NC(=O)c2ccc(Br)o2)n1` | -1.385% |
| `CCS(=O)(=O)N(C)CCCNC(=O)c1cc(Cl)cc2cccnc12` | 18.74% |
| `COc1cccc(N2CCC(CNCc3cccc(C#N)c3)C2)c1` (centres unmarked) | 14.9% and 42.86% |
| `Cc1cc(-c2cnc(NCc3cccnc3)nc2C(C)C)on1` | 14.28% |

5 of the entries, repeated:

With Clc1cc(NCc2ncc[nH]2)nc2[nH]ccc12 the screen gave 57.57%.
With Cc1cc(N2CCC(Cc3ccccc3)CC2)ncn1 the screen gave 11.19% and 20.81%.
With c1coc(CNc2nnc(Cc3ccsc3)o2)c1 the screen gave 45.34%.
With CCc1cc(N(C)Cc2cc[nH]n2)n2nc(C)c(C)c2n1 the screen gave 37.8%.
With Cc1cc(C)nc(N2CCC(CNC(=O)c3ccccn3)CC2)n1 the screen gave 14.01%.